According to paper PMC12153294 (mBio, 2025):

Tested on: JHMV A1438T/G1439V recombinant virus
Assay type: cell-based, murine hepatitis virus (MHV)

## COC(=O)[C@H](Cc1c[nH]c2ccccc12)Nc1ncnc2[nH]ccc12 [Compound 5a]
  Fold change in PFU/mL, WT vs A1438T/G1439V: 2.0 x

## CC(C)OC(=O)[C@H](Cc1c[nH]c2ccccc12)Nc1ncnc2[nH]ccc12 [Compound 5c]
  Fold change in PFU/mL, WT vs A1438T/G1439V: 2.8 x
